{"source": "patent US20240043505A1", "binders": {"B1": {"name": "Nb20 (VHH)", "VHH": "QVQLVESGGGLVQAGGSLRLSCAVSGAGAHRVGWFRRAPGKEREFVAAIGASGGMTNYLDSVKGRFTISRDNAKNTIYLQMNSLKPQDTAVYYCAARDIETAEYIYWGQGTQVTVSS"}}, "details_in_all_cases": "remark: other sources report otherwise", "key": {"[1]": {"molecular_target": "T1, SARS-CoV-2 spike receptor-binding domain (RBD) (SARS-CoV-2), P0DTC2"}, "[2]": {"molecular_target": "T1, SARS-CoV-2 spike receptor-binding …", "remark": "listed apart in the source"}, "[3]": {"molecular_target": "receptor-binding domain (RBD) of the SARS-CoV-2 spike (S) glycoprotein (SARS-CoV-2), P0DTC2"}, "[4]": {"molecular_target": "T1, SARS-CoV-2 spike receptor-binding …", "remark": "listed apart in the source"}, "[5]": {"molecular_target": "T1, SARS-CoV-2 spike receptor-binding …", "remark": "listed apart in the source"}, "[6]": {"molecular_target": "T1, SARS-CoV-2 spike receptor-binding …", "remark": "listed apart in the source"}, "[7]": {"molecular_target": "T1, SARS-CoV-2 spike receptor-binding …", "remark": "listed apart in the source"}, "[8]": {"molecular_target": "T1, SARS-CoV-2 spike receptor-binding …", "assay": "SPR (Biacore 3000), RBD immobilised"}, "[9]": {"molecular_target": "T1, SARS-CoV-2 spike receptor-binding …", "assay": "indirect ELISA, RBD coated on plate, 4PL fit"}, "[10]": {"molecular_target": "T1, SARS-CoV-2 spike receptor-binding …", "assay": "indirect ELISA on coated RBD ('ELISA affinity')"}}, "note": "Read-outs that look alike come from different tables or passages of the source.", "data": [{"binder": "B1", "values": [{"measurement": "Kd", "setting": "[1]", "value": 10.4, "unit": "pM"}, {"measurement": "Kd", "setting": "[2]", "value": 10.4, "unit": "pM"}, {"measurement": "koff", "setting": "[2]", "value": "3.08e-05", "unit": "s⁻¹"}, {"measurement": "kon", "setting": "[2]", "value": "2.96e+06", "unit": "M⁻¹ s⁻¹"}, {"measurement": "Buried surface area", "setting": "[3]", "value": 718, "unit": "Å^2"}, {"measurement": "Kd", "setting": "[4]", "value": 10, "unit": "pM"}, {"measurement": "koff", "setting": "[5]", "value": "3.08e-05", "unit": "s⁻¹"}, {"measurement": "kon", "setting": "[5]", "value": "2.96e+06", "unit": "M⁻¹ s⁻¹"}, {"measurement": "EC50 (read off the curve)", "setting": "[6]", "value": 1000, "unit": "pM"}, {"measurement": "IC50", "setting": "[7]", "value": 480, "unit": "pM"}, {"measurement": "Kd", "setting": "[8]", "value": 10.4, "unit": "pM"}, {"measurement": "ELISA affinity", "setting": "[9]", "value": 0.4, "unit": "nM"}, {"measurement": "IC50", "setting": "[10]", "value": 400, "unit": "pM"}]}]}
